Reference: PubChem BioAssay AID504761 (Drosophila RNAi Screening Center, 2011)
The screen tested about 22,000 reagents; below is a random part of those that have a named target and a result. In the full data, 116 (0.52%) are marked active. 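Calls depend on retest data that are not deposited; infection was ranked per plate without normalising between plates; the unit of the infection score is not given.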 Raw values vary from plate to plate and are shown uncorrected. Reagents against one gene are numbered here. Further read-outs or replicates are left out here. No sequences are given here. Not stated in the record: the amount of reagent, the time to read-out.

Assay: 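Genome-wide fly cell screen for genes dengue virus requires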 (primary screen)
Cells: D.Mel-2 cells from Drosophila
Reagent: long dsRNA against Drosophila genes
Challenge: infection with dengue virus type 2; dose and infection time not stated
Read-out: 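Per well on two replicate plates, imaging gave the percent of cells positive for viral envelope protein, ranked by infection, and a nuclear count of cells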
Reading the numbers: infection score: higher = more virus-infected cells; cell count: higher = more cells in the well
Rule for the call: 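Low infection ranks in the two replicates (chance level up to 0.065) followed by a retest with a 1.5-fold or larger significant decrease, p below 0.05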
Meaning of the calls: active = confirmed: knock-down lowers infection; inactive = not picked or not confirmed

Depletion of Leash #1 resulted in: infection score, replicate 1 = 4.66; cell count, replicate 1 = 6497; inactive.
Against Leash #2 the deposit lists infection score, replicate 1 = 21.4; cell count, replicate 1 = 4758; inactive.
scat #1 showed infection score, replicate 1 = 9.98; cell count, replicate 1 = 6084; inactive.
scat #2 scored infection score, replicate 1 = 12.2; cell count, replicate 1 = 6812; inactive.
CG4239 gave infection score, replicate 1 = 9.66; cell count, replicate 1 = 6477; inactive.
Against Clic the deposit lists infection score, replicate 1 = 14; cell count, replicate 1 = 6857; inactive.
Knock-down of CG15194 (retired record) #1 came out at: infection score, replicate 1 = 4.18; cell count, replicate 1 = 6319; inactive.
For CG15194 (retired record) #2 the deposit lists infection score, replicate 1 = 1.78; cell count, replicate 1 = 6392; inactive.
Against p47, the entry reads infection score, replicate 1 = 5.24; cell count, replicate 1 = 7220; inactive.
Against Scgalpha #1, the values are infection score, replicate 1 = 15.2; cell count, replicate 1 = 5933; inactive.
Scgalpha #2 showed infection score, replicate 1 = 14.1; cell count, replicate 1 = 5403; inactive.
After knock-down of CG15225 #1 the results were infection score, replicate 1 = 2.11; cell count, replicate 1 = 5493; inactive.
With knock-down of CG15225 #2, the record shows infection score, replicate 1 = 23.8; cell count, replicate 1 = 5260; inactive.
